Laboratory results taken from paper PMC11053489 (Viruses, 2024).
Counter-ions that a name gives are not always drawn. Like-named read-outs stand apart in the source and are kept apart here.

System: SARS-CoV-2 (hCoV-19/USA-WA1/2020) in Vero CCL-81 cells
Assay type: cell-based

Row | SMILES | Unbound Cmax/EC50 (Table 3, Vero CCL-81 cells) | Vero CCL-81 unbound Cmax/EC50 (Table 1 drugs, Cmax × Fun/EC50) | other results
1 | CC#CC(=O)N1CCC[C@H]1c1nc(-c2ccc(C(=O)Nc3ccccn3)cc2)c2c(N)nccn12 [Acalabrutinib] | 0.002 |  | 
2 | Cc1cccc(/C=N/Nc2cc(N3CCOCC3)nc(OCCc3ccccn3)n2)c1 [Apilimod mesylate] |  | * 0.062 | Vero CCL-81 unbound Cmax/EC50 (Table 1 drugs, Cmax × Fun/EC50, listed as Apilimod): 0.062
3 | CN(Cc1cc(Br)cc(Br)c1N)C1CCCCC1 [Bromhexine] | 0.006 |  | 
4 | CCCCCc1cc(O)c2c(c1)OC(C)(C)c1ccc(C)cc1-2 [Cannabinol] |  |  | Unbound Cmax/EC50: 0.0011
5 | Cc1ccc(-c2cc(C(F)(F)F)nn2-c2ccc(S(N)(=O)=O)cc2)cc1 [Celecoxib] |  | 0.008 | 
6 | CN(C)CCC(c1ccc(Cl)cc1)c1ccccn1 (stereo not drawn) [Chlorpheniramine maleate] | 0.0002 |  | 
7 | CC(C)C(=O)OCC(=O)[C@@]12O[C@H](C3CCCCC3)O[C@@H]1C[C@H]1[C@@H]3CCC4=CC(=O)C=C[C@]4(C)[C@H]3[C@@H](O)C[C@@]12C [Ciclesonide] | 1.9 × 10^−6 |  | 
8 | COC(=O)N[C@H](C(=O)N1CCC[C@H]1c1nc(-c2ccc(-c3ccc(-c4c[nH]c([C@@H]5CCCN5C(=O)[C@@H](NC(=O)OC)C(C)C)n4)cc3)cc2)c[nH]1)C(C)C [Daclatasvir] |  | 0.03 | 
9 | O=C(O)Cc1ccccc1Nc1c(Cl)cccc1Cl [Diclofenac sodium] |  |  | Unbound Cmax/EC50: 0.0001
10 | C[C@H]1c2cccc(O)c2C(=O)C2=C(O)[C@]3(O)C(=O)C(C(N)=O)=C(O)[C@@H](N(C)C)[C@@H]3[C@@H](O)[C@@H]21 [Doxycycline] | 0.008 |  | 
11 | O=c1c2ccccc2[se]n1-c1ccccc1 [Ebselen] |  | 0.012 | 
12 | COC(=O)N[C@H](C(=O)N1CCC[C@H]1c1nc(-c2ccc3c(c2)O[C@@H](c2ccccc2)n2c-3cc3cc(-c4c[nH]c([C@@H]5CCCN5C(=O)[C@@H](NC(=O)OC)C(C)C)n4)ccc32)c[nH]1)C(C)C [Elbasivir] | 0.001 |  | 
13 | NC(N)=Nc1nc(CSCCC(N)=NS(N)(=O)=O)cs1 [Famotidine] | 0.001 |  | 
14 | NC(=O)c1nc(F)c[nH]c1=O [Favipiravir] |  | 2.1 | 
15 | CN1CC[C@H](c2c(O)cc(O)c3c(=O)cc(-c4ccccc4Cl)oc23)[C@H](O)C1 [Flavopiridol] | 0.99 |  | 
16 | N#C[C@@]1(c2ccc3c(N)ncnn23)O[C@H](CO)[C@@H](O)[C@H]1O [GS-441524] |  |  | Vero CCL-81 unbound Cmax/EC50: 3.0
17 | Cc1cc(C2=NO[C@@](c3cc(Cl)c(Cl)c(Cl)c3)(C(F)(F)F)C2)sc1C(=O)NCC(=O)NCC(F)(F)F [Lotilaner] |  |  | Unbound Cmax/EC50: 0.0035
18 | Cc1cccc(Nc2ccccc2C(=O)O)c1C [Mefenamic acid] |  | 0.018 | 
19 | COc1ccc2[nH]cc(CCNC(C)=O)c2c1 [Melatonin] | 0.0002 |  | 
20 | CC(C)C(=O)OC[C@H]1O[C@@H](n2ccc(NO)nc2=O)[C@H](O)[C@@H]1O [Molnupiravir (NHC), Molnupiravir] |  | 4.58 | 
21 | CC(C)(C)[C@H](NC(=O)C(F)(F)F)C(=O)N1C[C@H]2[C@@H]([C@H]1C(=O)N[C@H](C#N)C[C@@H]1CCNC1=O)C2(C)C [Nirmatrelvir] |  |  | Vero CCL-81 unbound Cmax/EC50: 0.21
22 | CC(=O)Oc1ccccc1C(=O)Nc1ncc([N+](=O)[O-])s1 [Nitazoxanide] |  | 0.25 | 
23 | CC(C)C(=O)OC[C@H]1O[C@@](C#N)(c2ccc3c(N)ncnn23)[C@H](O)[C@@H]1O [Obeldesivir] |  | 7.2 | 
24 | CCC(CC)COC(=O)[C@H](C)N[P@](=O)(OC[C@H]1O[C@@](C#N)(c2ccc3c(N)ncnn23)[C@H](O)[C@@H]1O)Oc1ccccc1 [Remdesivir] |  |  | Vero CCL-81 unbound Cmax/EC50: 0.14
25 | COC[C@H]1C[C@@H](c2nc(-c3ccc4c(c3)COc3cc5c(ccc6nc([C@@H]7CC[C@H](C)N7C(=O)[C@@H](NC(=O)OC)C(C)C)[nH]c65)cc3-4)c[nH]2)N(C(=O)[C@H](NC(=O)OC)c2ccccc2)C1 [Velpatasvir] | 7.8 × 10^−5 |  | 
26 | CC(c1cc2ccccc2s1)N(O)C(N)=O (stereo not drawn) [Zileuton] |  | 0.02 | 
